PubChem BioAssay AID624099 | ICCB-Longwood | 2012
The whole screen tested about 21,000 reagents; below is a random part of them. Over the whole deposit, 497 (2.4%) are marked active. 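Higher z means weaker E2 silencing; only reporter increases were scored, and knock-downs that hurt cell survival may mask genuine repressor factors.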 No sequences are given here.

Purpose: 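Human genes that papillomavirus E2 requires to repress the HPV18 LCR promoter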 (primary screen)
Cell system: human C33A cervical carcinoma cells (HPV-negative) stably expressing BPV1 E2 and an HPV18 LCR luciferase reporter
Knock-down reagent: siRNA pool against human genes, 40 nM
Timing: 72 h
Detection: 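HPV18 LCR reporter light per well, converted to plate-wise z-scores that exclude control wells, and averaged over triplicate plates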
Direction: mean z-score and z-score: higher = stronger reporter signal, weaker E2 silencing
Active means: 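Mean z ≥ 2 together with z ≥ 2 in two or more of the three replicates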

gene | mean z-score | z-score, replicate A | z-score, replicate B | z-score, replicate C | outcome
ELMO2 (engulfment and cell motility 2) | 0.26 | 0.53 | 0.13 | 0.11 | inactive
IL32 (interleukin 32) | -0.7 | -0.81 | -0.53 | -0.77 | inactive
SLC6A3 | -0.24 | -0.44 | -0.32 | 0.06 | inactive
POM121L12 (POM121 transmembrane nucleoporin like 12) | -0.83 | -0.74 | -1.06 | -0.7 | inactive
CGREF1 (cell growth regulator with EF-hand domain 1) | 0.97 | 0.54 | 1.06 | 1.3 | inactive
C11orf42 (chromosome 11 open reading frame 42) | -0.09 | -0.24 | -0.15 | 0.13 | inactive
PCDHA5 (protocadherin alpha 5) | -0.39 | -0.43 | -0.37 | -0.36 | inactive
OS9 (OS9 endoplasmic reticulum lectin) | 0.04 | -0.1 | 0.24 | -0.03 | inactive
FAM163A (family with sequence similarity 163 member A) | 0.83 | 0.59 | 1.13 | 0.76 | inactive
CNNM1 | 0.78 | 0.74 | 0.89 | 0.71 | inactive
FKBP1B (FKBP prolyl isomerase 1B) | 0.25 | 0.07 | 0.48 | 0.21 | inactive
LPCAT4 (lysophosphatidylcholine acyltransferase 4) | 0.08 | 0.29 | -0.29 | 0.23 | inactive
LOC387816 (retired record) | -0.91 | -0.64 | -1.13 | -0.96 | inactive
MAGI2 | 0.15 | -0.29 | 0.46 | 0.29 | inactive
EWSAT1 (Ewing sarcoma associated transcript 1) | 1.19 | 1.18 | 1.28 | 1.11 | inactive
AP4B1 (adaptor related protein complex 4 subunit beta 1) | 2.44 | 2.81 | 1.97 | 2.54 | active
JAK2 (Janus kinase 2) | -3.83 | -3.65 | -4.17 | -3.66 | inactive
SORBS1 (sorbin and SH3 domain containing 1) | -1.25 | -1.46 | -1.38 | -0.91 | inactive
LOC339693 (retired record) | -0.09 | 0.2 | 0.18 | -0.66 | inactive
UBASH3B (ubiquitin associated and SH3 domain containing B) | 0.63 | 0.59 | 0.5 | 0.8 | inactive
MADD (MAP kinase activating death domain) | 0.7 | 0.67 | 0.61 | 0.82 | inactive
OR1C1 (olfactory receptor family 1 subfamily C member 1) | 0.29 | 0.55 | -0.22 | 0.55 | inactive
PTPN12 (protein tyrosine phosphatase non-receptor type 12) | 0.78 | 0.62 | 0.83 | 0.9 | inactive
NR1H4 (nuclear receptor subfamily 1 group H member 4) | -0.2 | -0.28 | -0.08 | -0.24 | inactive
RTL5 (retrotransposon Gag like 5) | 0.06 | 0.16 | -0.03 | 0.04 | inactive
MYEF2 (myelin expression factor 2) | 0.27 | -0.21 | 1.13 | -0.1 | inactive
KDM6B (lysine demethylase 6B) | -0.4 | -0.13 | -0.6 | -0.47 | inactive
SIRAL2 (SIR2 antiphage like 2) | 0.4 | 1.17 | 0.39 | -0.37 | inactive
GAS2L1 (growth arrest specific 2 like 1) | -1.01 | -1.14 | -1.13 | -0.76 | inactive
OR4C15 (olfactory receptor family 4 subfamily C member 15) | -0.11 | -0.14 | -0.29 | 0.11 | inactive
SBSPON (somatomedin B and thrombospondin type 1 domain containing) | 0.27 | 0.06 | 0.53 | 0.21 | inactive
BSN (bassoon presynaptic cytomatrix protein) | 0.6 | 0.66 | 0.73 | 0.41 | inactive
PPP3R1 (protein phosphatase 3 regulatory subunit B, alpha) | -0.53 | -0.22 | -0.82 | -0.55 | inactive
MYH9 (myosin heavy chain 9) | -0.32 | -0.18 | -0.42 | -0.36 | inactive
KNL1 (kinetochore scaffold 1) | 0.5 | 0.45 | 0.57 | 0.48 | inactive
LPAR4 (lysophosphatidic acid receptor 4) | -0.37 | -0.1 | -0.63 | -0.38 | inactive
KCP (kielin cysteine rich BMP regulator) | -0.62 | -0.25 | -0.73 | -0.9 | inactive
SLC24A5 | -1.33 | -1.19 | -1.58 | -1.22 | inactive
CRISP3 (cysteine rich secretory protein 3) | 0.18 | 0.02 | 0.31 | 0.2 | inactive
